Values from PubChem BioAssay AID1259414 (Drosophila RNAi Screening Center, 2018).

Test: 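Fly genes that alter Wolbachia amount inside host cells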 (primary screen)
System: Drosophila JW18 cells infected with Wolbachia
Reagents: long dsRNA against Drosophila genes, 0.25 µg dsRNA per well of a 384-well plate
Time to read-out: 5 days
Conditions: cells persistently infected with Wolbachia before knock-down; no added drug
Measured: 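Automated imaging of bacterial rRNA staining divided by host cell count, reported as plate-normalised robust z-score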
Direction: Wolbachia per cell robust z: higher = more Wolbachia per host cell than the plate typical
Active means: 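Active if absolute robust z reaches 1.5 in two or more of three replicates, leaving out multi- or no-target dsRNAs, genes unexpressed in JW18 and A1 wells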
In all, the deposit lists about 24,000 reagents; below is a random part of those that have a named target and a result. Over the whole deposit, about 1,210 (5%) were called active. 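Inactive calls also include excluded dsRNAs with several or no targets, genes unexpressed in JW18, and well A1, regardless of score.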 Unmarked entries are inactive. A plus sign joins genes that one reagent is predicted to hit.

| predicted target | DRSC id | Wolbachia per cell robust z, rep 1 | Wolbachia per cell robust z, rep 2 | Wolbachia per cell robust z, rep 3 |
| --- | --- | --- | --- | --- |
| CG33160 | DRSC08197 | -2.02 | -0.759 | 0.272 |
| CG33160 | DRSC26770 | -0.752 | -0.525 | -0.396 |
| mRpL52 | DRSC06585 | 0.193 | 0.105 | 0.588 |
| CG30457 | DRSC06661 | -0.0322 | 0.505 | 1.07 |
| CG30457 | DRSC28490 | 0.105 | 0.168 | -0.413 |
| CG10834 | DRSC03693 | -1.05 | -0.353 | 0.474 |
| CG32199 | DRSC09990 | 0.778 | 0.918 | 0.183 |
| CG3999 | DRSC15534 | -4.78 | 0.197 | 0.211 |
| CG3999 | DRSC29444 | -0.203 | -0.0395 | -1.34 |
| Vps16A | DRSC16422 | -0.228 | -0.12 | 1.19 |
| CG31358 + CG42504 + CG42505 | DRSC15235 | -2.11 | -0.755 | -2.07 |
| PAN3 | DRSC08190 | -0.0847 | -0.0281 | 0.707 |
| PAN3 | DRSC25366 | -1.03 | -0.316 | -0.813 |
| PAN3 | DRSC41596 | 1.04 | -0.0607 | 0.911 |
| CG43897 | DRSC10173 | 0.712 | -0.136 | -0.102 |
| CG43897 | DRSC10967 | 1.42 | 0.144 | 0.447 |
| CG43897 | DRSC25184 | 1.13 | 0.861 | 0.412 |
| CG43897 | DRSC25785 | -4.81 | -0.799 | -0.722 |
| sr | DRSC13284 | -0.91 | -4.24 | -0.151 |
| sr | DRSC25793 | -0.0471 | 0.145 | -0.971 |
| c12.2 | DRSC18751 | -0.326 | 0.76 | 0.74 |
| c12.2 | DRSC26390 | 1.6 | 1.44 | 0.449 |
| CG10063 | DRSC09688 | -1.18 | -1.63 | 0.323 |
| CG10063 | DRSC28872 | -0.335 | 0.31 | 1.04 |
| rhea | DRSC11300 | 1 | 1.37 | 1.9 |
| BBIP1 + CG8135 | DRSC12739 | 0.534 | 1.11 | 0.304 |
| Trf4 | DRSC38927 | -0.671 | -0.429 | -0.457 |
| eIF4G2 | DRSC14207 | 0.19 | 1.34 | 1.05 |
| eIF4G2 | DRSC21739 | -1.27 | 0.207 | -0.164 |
| CG14442 | DRSC25040 | 0.0776 | 0.46 | 2.39 |
| yip3 | DRSC04724 | 0.863 | -0.337 | -0.413 |
| CG14756 | DRSC06491 | -2.18 | 0.271 | -2.43 |
| CG14756 | DRSC24808 | -5.52 | -5.47 | -5.47 |
| NimB5 + He | DRSC22876 | -0.57 | 0.675 | -0.106 |
| CG15772 | DRSC18078 | -0.956 | -0.0199 | 0.63 |
| Obp56a | DRSC06085 | -0.261 | -0.442 | -1.55 |
| Obp56a | DRSC30070 | 0.00425 | 0.105 | 0.712 |
| CG9592 | DRSC11078 | 0.163 | -0.159 | -0.591 |
| CG10694 | DRSC14263 | -0.0246 | 0.282 | -0.997 |
| vanin-like | DRSC17440 | 1.96 | -6.77 | 0.36 |
| ebd2 | DRSC11682 | -1.55 (active) | 0.107 | -2.93 |
| ebd2 | DRSC28502 | 1.16 | 0.0278 | -1.97 |
| Jon66Ci | DRSC10772 | 0.368 | 0.575 | 0.361 |
| Jon66Ci | DRSC26520 | -0.333 | 0.5 | 1.95 |
| ND-B14.5AL | DRSC11795 | 0.877 | 1.16 | 0.954 |
| ND-B14.5AL | DRSC28992 | 0.476 | -0.0519 | -0.959 |
| CG32444 | DRSC11677 | -1.52 | 0.384 | 0.62 |
| CG34001 | DRSC38847 | 0.632 | 0.122 | 1.36 |
| CG31924 | DRSC00689 | -4.86 | -1.02 | -1.37 |
| CG5592 | DRSC10524 | 0.262 | 1.06 | 0.481 |
| Lcp65Ae | DRSC11212 | 0.0254 | -0.127 | 0.215 |
| CR34254 | DRSC38834 | 0.512 | -0.638 | -0.391 |
| pim | DRSC03591 | 3.04 (active) | 1.9 | 0.829 |
| Bbd | DRSC06709 | 0.309 | -1.77 | -1.22 |
| CG3634 | DRSC11747 | 0.904 | 1.27 | 0.355 |
| prel | DRSC07271 | -0.157 | -0.0917 | 1.02 |
| wcd | DRSC07051 | -0.306 | -0.229 | 0.428 |
| Smug | DRSC15762 | 0.333 | -0.359 | 0.766 |
| CG32201 | DRSC22452 | -0.946 | -0.124 | 0.671 |
| CG15253 | DRSC01871 | -0.548 | -0.114 | -0.407 |
| CG15253 | DRSC26826 | 0.615 | 0.246 | -0.167 |
| Pgant3 | DRSC05942 | 1.65 | 0.117 | 0.927 |
| Pgant3 | DRSC29252 | 1.45 | 0.117 | 0.593 |
| CG31286 | DRSC26727 | 0.62 | -0.444 | -0.724 |
| RNaseZ | DRSC06845 | -0.997 | 0.0548 | 0.00233 |
| sgl | DRSC21431 | 0.937 | 0.346 | 1.41 |
| sgl | DRSC29308 | 0.452 | 0.115 | 0.414 |
| sgl | DRSC40740 | -1.31 | -0.508 | -0.0847 |
